PubChem BioAssay AID624099 – ICCB-Longwood, 2012
In all, the deposit lists about 21,000 reagents; this is a random part of them. 497 of them (2.4%) count as active. 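Higher z means weaker E2 silencing; only reporter increases were scored, and knock-downs that hurt cell survival may mask genuine repressor factors.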 A number with no mark means an inactive call.

- Aim: 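Host factors E2 relies on to silence an HPV18 LCR reporter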 (primary screen)
- Cells: human C33A cervical carcinoma cells (HPV-negative) stably expressing BPV1 E2 and an HPV18 LCR luciferase reporter
- Reagent: siRNA pool against human genes, 40 nM
- Timing: 72 h
- Measured: 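Per-well luciferase luminescence, z-scored on each plate against the plate mean and SD with control wells left out, then averaged across three replicate plates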
- Scale: mean z-score and z-score: higher = stronger reporter signal, weaker E2 silencing
- Rule for the call: 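Mean z ≥ 2 together with z ≥ 2 in two or more of the three replicates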

{"target": "UBE2T", "mean z-score": -1.24, "z-score, replicate A": -1.17, "z-score, replicate B": -1.46, "z-score, replicate C": -1.09}
{"target": "ZFAND2B", "mean z-score": 0.26, "z-score, replicate A": 0.08, "z-score, replicate B": 0.19, "z-score, replicate C": 0.5}
{"target": "ALKBH3", "mean z-score": 0.69, "z-score, replicate A": 0.86, "z-score, replicate B": 0.69, "z-score, replicate C": 0.53}
{"target": "ZUP1", "mean z-score": -0.3, "z-score, replicate A": -0.41, "z-score, replicate B": -0.15, "z-score, replicate C": -0.34}
{"target": "PEX12", "mean z-score": 0.78, "z-score, replicate A": 0.77, "z-score, replicate B": 0.79, "z-score, replicate C": 0.78}
{"target": "LGALS7", "mean z-score": 0.71, "z-score, replicate A": 0.84, "z-score, replicate B": 0.66, "z-score, replicate C": 0.62}
{"target": "GLT8D2", "mean z-score": -0.05, "z-score, replicate A": -0.08, "z-score, replicate B": -0.03, "z-score, replicate C": -0.04}
{"target": "GOLGA8DP", "mean z-score": -0.24, "z-score, replicate A": -0.21, "z-score, replicate B": -0.17, "z-score, replicate C": -0.34}
{"target": "ATRX", "mean z-score": -0.35, "z-score, replicate A": -0.36, "z-score, replicate B": -0.41, "z-score, replicate C": -0.29}

Not a retest: entries from further up.
{"target": "ZFAND2B", "mean z-score": 0.26, "z-score, replicate A": 0.08, "z-score, replicate B": 0.19, "z-score, replicate C": 0.5}
{"target": "ALKBH3", "mean z-score": 0.69, "z-score, replicate A": 0.86, "z-score, replicate B": 0.69, "z-score, replicate C": 0.53}

The results go on:
{"target": "AMELY", "mean z-score": 1.18, "z-score, replicate A": 0.97, "z-score, replicate B": 1.29, "z-score, replicate C": 1.29}
{"target": "DGKE", "mean z-score": -0.59, "z-score, replicate A": -0.75, "z-score, replicate B": -0.14, "z-score, replicate C": -0.9}
{"target": "CDK20", "mean z-score": -1.63, "z-score, replicate A": -2.02, "z-score, replicate B": -2.05, "z-score, replicate C": -0.83}
{"target": "ADCK1", "mean z-score": 0.34, "z-score, replicate A": 0.42, "z-score, replicate B": -0.24, "z-score, replicate C": 0.85}
{"target": "MSL2", "mean z-score": -0.89, "z-score, replicate A": -0.96, "z-score, replicate B": -0.9, "z-score, replicate C": -0.82}
{"target": "ARHGEF9", "mean z-score": 1.38, "z-score, replicate A": 1.29, "z-score, replicate B": 1.39, "z-score, replicate C": 1.46}
{"target": "PIMREG", "mean z-score": 0.73, "z-score, replicate A": 0.85, "z-score, replicate B": 0.76, "z-score, replicate C": 0.58}
{"target": "RCSD1", "mean z-score": -0.08, "z-score, replicate A": 0.19, "z-score, replicate B": -0.39, "z-score, replicate C": -0.04}
{"target": "NDUFV3", "mean z-score": -0.28, "z-score, replicate A": -0.07, "z-score, replicate B": -0.72, "z-score, replicate C": -0.06}
{"target": "SETX", "mean z-score": -1.81, "z-score, replicate A": -1.78, "z-score, replicate B": -1.72, "z-score, replicate C": -1.94}
{"target": "CDKN2B", "mean z-score": 1.32, "z-score, replicate A": 2.22, "z-score, replicate B": 1.07, "z-score, replicate C": 0.65}
{"target": "TIGD2", "mean z-score": 0.23, "z-score, replicate A": -0.21, "z-score, replicate B": 0.48, "z-score, replicate C": 0.42}
